Measured values from several laboratories, pooled; numbers as filed in NIAID ChemDB.

All rows: growth or infection tests; species: Mycobacterium tuberculosis

ECn is the concentration giving n% inhibition of infection, replication or growth. For "inactive" no cut-off is given. A number after MIC or MFC names an inhibition level or a share of isolates. An empty or dashed field is not shown. Inhibition is in % at the dose shown (toxicity tests: loss of growth or viability). Neighbouring rows are from separate reports. MIC bound: limit read from a one-dose screen.

structure | cell line | method | dose | strain | endpoint | result
Cc1nn(-c2ccccc2)c2c1C(c1cn(-c3ccccc3)nc1-c1ccc(Cl)cc1)C1=C(NC(C)(c3cc(O)ccc3Cl)NC1=O)O2 | - | agar diffusion / agar | - | MTCC 300 | MIC | 1000 µg/mL
CCn1cc(C(=O)O)c(=O)c2cc(F)c(N3CCNCC3)cc21 | - | - | - | CIPT 140010072 | MIC | 10 µg/mL
Cc1csc(NC(=O)c2cnc(C(C)(C)C)cn2)n1 | - | - | 6.25 µg/mL | H37Rv | inhibition | 35%
Cc1ccc(-c2cc(-c3ccc(Cl)cc3)nc(/N=C3\C(=O)N(CN4CCOCC4)c4ccc(Br)cc43)n2)cc1 | - | BACTEC | - | H37Rv | EC50 | <6.25 µg/mL
Clc1ccc(-c2c(C(c3ccccc3)n3ccnc3)cnn2-c2ccc(Cl)cc2Cl)cc1 | - | - | - | ATCC 35822 (isoniazid-resistant) | MIC50 | 91.7 µM
COc1ccc(C2SC(C)C(=O)N2c2cc(C(C)C)c(O)cc2C)cc1 | - | - | 100 µg/mL | H37Rv | inhibition | inactive
Cc1c(Cl)c(=O)oc2cc(OCc3ccccc3)ccc12 | - | fluorescence | 1 µM | H37Rv | inhibition | 2.7%
O=C(Nc1ccc(C2=NCCN2)cc1)c1cccc(C(=O)Nc2ccc(C3=NCCN3)cc2)n1 | - | resazurin | 6.25 µg/mL | H37Rv | inhibition | 74%
Cc1cnc(NC(=O)c2cnccn2)s1 | - | - | 6.25 µg/mL | H37Rv | inhibition | 10%
O=C(O)C(Cc1ccc(I)cc1)Nc1nc(-c2ccc(Cl)c(Cl)c2)cs1 | - | broth dilution | - | H37Rv | MIC99 | >100 µg/mL
CC(C)=CCC[C@H](C)C1CC[C@@H](C)c2c(O)cc(C)c([N+](=O)[O-])c21 | - | resazurin | - | H37Rv | MIC | 47.2 µM
CC(=O)NCCc1nc(-c2nc(C(=O)NCCCN)cs2)cs1.Cl | - | BACTEC | - | H37Rv | MIC | ≥12.8 µg/mL
COc1ccc(C=Nc2ccc(O)cc2)cc1OC | - | - | 100 µg/mL | H37Rv | inhibition | inactive
Cc1ccc(-c2cc(-c3ccc(Cl)cc3)nc(/N=C3\C(=O)N(CN(C)C)c4ccc(Br)cc43)n2)cc1 | - | BACTEC | 6.25 µg/mL | H37Rv | inhibition | 88%
NC(=S)N(Cc1cc2ccccc2nc1Cl)c1ccc(Cl)c(Cl)c1 | - | - | - | H37Ra | MIC | 50 µg/mL
Cc1ccc(-c2cc(-c3ccc(Cl)cc3)nc(/N=C3\C(=O)Nc4ccc(Cl)cc43)n2)cc1 | - | BACTEC | 6.25 µg/mL | H37Rv | inhibition | 90%
CC(C)(C)n1nnnc1Cl | - | BACTEC | - | H37Rv | MIC bound | >12.5 µg/mL
COc1ccccc1C1C(Cl)C(=O)N1c1cc(C(C)C)c(O)cc1C | - | - | 100 µg/mL | H37Rv | inhibition | inactive
Cc1ccc(-c2cc(-c3ccc(Cl)cc3)nc(/N=C3\C(=O)N(CN(C)C)c4ccccc43)n2)cc1 | - | BACTEC | 6.25 µg/mL | H37Rv | inhibition | 90%
CCOC(=O)Nc1cc2c(c(N)n1)N=C(CN(C)c1ccc(OC)cc1)CN2 | - | - | - | H37Rv | MIC | >12.5 µg/mL
O=C(NN1C(=O)CSC1c1ccc(Cl)cc1Cl)c1ncc2cc(C(F)(F)F)ccc2n1 | - | visual reading | - | H37Rv | MIC | 2.58 µM
C/C(=C\CC[C@H](C)C1CC[C@@H](C)c2c(O)cc(C)cc21)C1CC(=O)C=CO1 | - | resazurin | - | H37Rv | MIC | >200 µM
CC(C)c1ccc(/C=C2\CSC/C(=C/c3ccc(C(C)C)cc3)C2=O)cc1 | - | BACTEC | 12.5 µg/mL | H37Rv | inhibition | 0%
Fc1ccc(-n2ncc(C(c3ccccc3)n3ccnc3)c2-c2ccccc2)cc1 | - | - | - | ATCC 27294 | MIC50 | 65.3 µM
CC(C)(C)c1cnc(C(=O)Nc2cc(Br)c(O)c(Br)c2)cn1 | - | - | 6.25 µg/mL | H37Rv | inhibition | 54%
COc1c(C)[nH]ccc1=O | - | BACTEC | - | H37Rv | MIC | ≥12.5 µg/mL
CNC(=S)N(Cc1cc2ccccc2nc1Cl)c1ccccc1 | - | - | - | H37Ra | MIC | 100 µg/mL
Fc1ccccc1-c1c(C(c2ccccc2)n2ccnc2)cnn1-c1ccccc1 | - | - | - | ATCC 35837 (ethambutol-resistant) | MIC50 | ≥100 µM
COc1cccc(NC(=O)c2cncc(Cl)n2)c1 | - | - | 6.25 µg/mL | H37Rv | inhibition | 2%
Cc1cc(=O)oc2cc(OCCN3CCC(Cc4ccccc4)CC3)ccc12 | - | fluorescence | 50 µM | H37Rv | inhibition | 70.5%
C=CC(C)(O)CCC1=C(C)[C@H](OC(C)=O)[C@H](OC(C)=O)C2C(C)(C)CCC[C@]12C | - | BACTEC | - | H37Rv | MIC | >100 µg/mL
O=C(Nc1ccc(Cl)c(Cl)c1)N1c2ccccc2Sc2ccccc21 | - | BACTEC | 12.5 µg/mL | H37Rv | inhibition | -7%
Cc1ccc(-c2cc(-c3ccc(Cl)cc3)nc(/N=C3\C(=O)N(CN4CCCCC4)c4ccc(Cl)cc43)n2)cc1 | - | BACTEC | 6.25 µg/mL | H37Rv | inhibition | 87%
COc1ccc(-c2nn(-c3ccccc3)cc2C2C3=C(NC(C)(c4cc(O)c(I)cc4Cl)NC3=O)Oc3c2c(C)nn3-c2ccccc2)cc1 | - | agar diffusion / agar | - | MTCC 300 | MIC | 100 µg/mL
Clc1ccc(-c2c(C(c3ccccc3)n3ccnc3)cnn2-c2ccccc2)cc1 | - | - | - | ATCC 35820 (streptomycin-resistant) | MIC50 | ≥100 µM
Cc1cc(O)c(C(C)C)cc1N1C(=O)C(CC(=O)O)SC1c1cccc(O)c1 | - | - | 100 µg/mL | H37Rv | inhibition | inactive
Cc1ccc(-c2cc(-c3ccc(Cl)cc3)nc(/N=C3\C(=O)N(CN4CCCCC4)c4ccc(Br)cc43)n2)cc1 | - | BACTEC | 6.25 µg/mL | H37Rv | inhibition | 88%
CCOP(=O)(O)C(Nc1ccc(N=Nc2ccccc2)cc1)c1cccc(C(Nc2ccc(N=Nc3ccccc3)cc2)P(=O)(O)OCC)c1 | - | resazurin | - | H37Rv | MIC bound | >6.25 µg/mL
CCCSc1cc(C(N)=S)cc(Cl)n1 | - | - | - | H37Rv | MIC | 125 µM
CC[C@H]1CN2CCc3cc(OC)c(OC)cc3[C@@H]2C[C@@H]1C[C@H]1NCCc2c1[nH]c1ccc(O)cc21 | - | resazurin | - | H37Rv | MIC bound | >6.25 µg/mL
Cc1cc(O)c(C(C)C)cc1N1C(=O)C(CC(=O)O)SC1c1ccc(O)cc1 | - | - | 100 µg/mL | H37Rv | inhibition | inactive
CN[C@@H]1[C@H](O[C@H]2[C@H](O[C@H]3[C@H](O)[C@@H](O)[C@H](N=C(N)N)[C@@H](O)[C@@H]3N=C(N)N)O[C@@H](C)[C@]2(O)C=O)O[C@@H](CO)[C@H](O)[C@H]1O | - | - | - | ATCC 35837 (ethambutol-resistant) | MIC90 | 0.3 µM
C/C(=N\N=C(/[Se])N1CCN(c2ccc(F)cc2)CC1)c1ccccn1 | - | BACTEC | - | H37Rv | MIC bound | ≤12.5 µg/mL
O=C1C2=Nc3ccncc3CN2c2ccc(Cl)cc21 | - | resazurin | - | H37Rv | MIC | 3.7 µg/mL
C=C(OC/C(C)=C/CC[C@H](C)C1CC[C@@H](C)c2c(O)cc(C)cc21)c1ccncn1 | - | resazurin | - | H37Rv | MIC | >200 µM
O=C1CN(C(=O)C2CCCN2C(=O)C2CCCN2)C(=O)CN1 | - | resazurin | 6.25 µg/mL | H37Rv | inhibition | 9%
O=c1ccc2ccc(OCc3ccc(Br)cc3)cc2o1 | - | fluorescence | 100 µM | H37Rv | inhibition | 36.37%
CC1=C(N)C(=O)C2=C(C1=O)N1C[C@H]3[C@H](N3C)[C@]1(O)[C@@H]2COC(N)=O | - | - | - | KM-R | MIC | 0.8 µg/mL
Cc1cc(O)c(C(C)C)cc1N1C(=O)C(Cl)C1c1cccc(Cl)c1 | - | - | 100 µg/mL | H37Rv | inhibition | inactive
CCCCNC(=O)Oc1ccc(C2=Nc3c(cc(NC(=O)OCC)nc3N)N[C@H]2C)cc1 | - | - | - | H37Rv | MIC | >12.5 µg/mL
COc1ccccc1C1SC(CC(=O)O)C(=O)N1c1cc(C(C)C)c(O)cc1C | - | - | 100 µg/mL | H37Rv | inhibition | inactive
CNC(=S)N(Cc1cc2ccccc2nc1Cl)c1ccc(Cl)c(Cl)c1 | - | - | - | H37Ra | MIC | 50 µg/mL
O=C(N=Nc1c(O)[nH]c2ccccc12)C(=O)N=Nc1c(O)[nH]c2ccccc12 | - | BACTEC | 12.5 µg/mL | H37Rv | inhibition | 13%
Clc1ccc(-c2c(C(c3ccccc3)n3ccnc3)cnn2-c2ccc(Cl)cc2)cc1 | - | - | - | ATCC 35820 (streptomycin-resistant) | MIC50 | ≥100 µM
CCC[CH2][Sn]1([CH2]CCC)[O]C2C(O)OC(CO)C(O)C2[O]1 | - | BACTEC | - | H37Rv | MIC bound | ≤12.5 µg/mL
NNC(=O)c1ccncc1 | - | - | - | Isolate 4 | MIC | 8 µg/mL
CC(/C=N/O)=C\CC[C@H](C)C1CC[C@@H](C)c2c(O)cc(C)cc21 | - | resazurin | - | H37Rv | MIC | >200 µM
Cc1cn2c(C(=O)NCc3ccc(N4CCN(c5ccc(C(F)(F)F)cn5)CC4)c(F)c3)c(C)nc2s1 | Human liver microsomes | luminescence | - | H37Rv | EC50 | >20 µM
Cc1cc(O)c2c(c1)C([C@@H](C)CCc1nn(C)cc1C)CC[C@H]2C | - | resazurin | - | H37Rv | MIC | >200 µM
COc1cc(-n2c(SC)nc3ccccc3c2=O)c(OC)cc1Cl | - | BACTEC | - | H37Rv | MIC bound | >12.5 µg/mL
CNC(=S)N(Cc1cc2ccccc2nc1Cl)c1ccc([N+](=O)[O-])cc1 | - | - | - | H37Ra | MIC | 200 µg/mL
CCn1cc(C(=O)O)c(=O)c2cc(F)c(N3CCNCC3)nc21 | - | - | - | CIPT 140010072 | MIC | 10 µg/mL
NC1[C@H]2CN(c3nc4c(cc3F)c(=O)c(C(=O)O)cn4-c3ccc(F)cc3F)C[C@@H]12 | - | - | - | 33 strains | MIC90 | 32 µg/mL
O=C1CN(CCN2CC(=O)NC(=O)C2)CC(=O)N1 | - | BACTEC | 12.5 µg/mL | H37Rv | inhibition | -13%
CCCCCCCCO[C@H]1OC(CS[C@H]2O[C@H](CO)[C@@H](O)[C@@H]2O)[C@@H](O)[C@@H]1O | - | - | - | H37Ra | MIC | 4 µg/mL
CCCCCCCSc1cc(C(N)=S)cc(Br)n1 | - | - | - | H37Rv | MIC | 60 µM
CC[C@@H](CO)NCCN[C@@H](CC)CO | - | - | - | Isolate 8 | MIC | 8 µg/mL
COc1ccccc1C1SCC(=O)N1NC(=O)c1ncc2cc(C(F)(F)F)ccc2n1 | - | visual reading | - | H37Rv | MIC | 2.81 µM
CC(C)(C)c1cnc(C(=O)Nc2ccccc2Br)cn1 | - | - | 6.25 µg/mL | H37Rv | inhibition | 22%
Cc1cc(O)c2c(c1)C([C@@H](C)CCCC1OC1(C)CO)CC[C@H]2C | - | resazurin | - | H37Rv | MIC | >200 µM
Cc1c(Cl)c(=O)oc2cc(OCCN3CCN(Cc4ccc(Br)cc4)CC3)ccc12 | - | fluorescence | 1 µM | H37Rv | inhibition | 2.97%
COC(=O)/C(=N\NC(=O)C[N+](C)(C)C)C(C(=O)OC)C(=O)C(=O)Nc1ccccc1C(N)=O.[Cl-] | - | BACTEC | - | H37Rv | MIC bound | >12.5 µg/mL
CC(C)=CCC[C@H](C)C1CC[C@@H](C)c2c1cc(C)c([N+](=O)[O-])c2O | - | resazurin | - | H37Rv | MIC | >200 µM
Oc1c(CN2CCN(c3ccccc3)CC2)cc(Br)c2cccnc12 | - | resazurin | - | H37Rv | MIC bound | >6.25 µg/mL
COc1cc(NC(=O)c2cnc(C(C)(C)C)c(Cl)n2)cc(OC)c1 | - | - | 6.25 µg/mL | H37Rv | inhibition | 0%
CCCCCCCSc1cc(C(N)=O)cc(SCCCCCC)n1 | - | - | - | H37Rv | MIC | 1000 µM
Cc1ccc(S(=O)(=O)NNC(=O)c2cccnc2)cc1 | - | BACTEC | - | H37Rv | MIC | ≥12.5 µg/mL
Fc1ccccc1-c1c(C(c2ccccc2)n2ccnc2)cnn1-c1ccccc1F | - | - | - | ATCC 35820 (streptomycin-resistant) | MIC90 | ≥100 µM
O=C1OC(c2ccccc2)CC1N1CCCCC1 | - | BACTEC | 12.5 µg/mL | H37Rv | inhibition | -8%
Clc1ccccc1-c1c(C(c2ccccc2)n2ccnc2)cnn1-c1ccccc1 | - | - | - | ATCC 35828 (pyrazinamide-resistant) | MIC50 | 27.3 µM
COC(=O)C(/C(=N/NC(N)=O)C(=O)Nc1c(C)cccc1C(C)(C)C)c1nc2ccc(Cl)cc2[nH]c1=O | - | resazurin | - | H37Rv | MIC bound | >6.25 µg/mL
O=C(NN1C(=O)CSC1c1ccccc1[N+](=O)[O-])c1ncc2cc(C(F)(F)F)ccc2n1 | - | visual reading | - | H37Rv | MIC | 3.08 µM

A second listing of 7 rows from above:

structure,cell line,method,dose,strain,endpoint,result
O=C(Nc1ccc(C2=NCCN2)cc1)c1cccc(C(=O)Nc2ccc(C3=NCCN3)cc2)n1,-,resazurin,6.25 µg/mL,H37Rv,inhibition,74%
CNC(=S)N(Cc1cc2ccccc2nc1Cl)c1ccc(Cl)c(Cl)c1,-,-,-,H37Ra,MIC,50 µg/mL
Cc1ccc(S(=O)(=O)NNC(=O)c2cccnc2)cc1,-,BACTEC,-,H37Rv,MIC,≥12.5 µg/mL
Cc1cc(O)c(C(C)C)cc1N1C(=O)C(CC(=O)O)SC1c1ccc(O)cc1,-,-,100 µg/mL,H37Rv,inhibition,inactive
CN[C@@H]1[C@H](O[C@H]2[C@H](O[C@H]3[C@H](O)[C@@H](O)[C@H](N=C(N)N)[C@@H](O)[C@@H]3N=C(N)N)O[C@@H](C)[C@]2(O)C=O)O[C@@H](CO)[C@H](O)[C@H]1O,-,-,-,ATCC 35837 (ethambutol-resistant),MIC90,0.3 µM
C=C(OC/C(C)=C/CC[C@H](C)C1CC[C@@H](C)c2c(O)cc(C)cc21)c1ccncn1,-,resazurin,-,H37Rv,MIC,>200 µM
CC(C)=CCC[C@H](C)C1CC[C@@H](C)c2c1cc(C)c([N+](=O)[O-])c2O,-,resazurin,-,H37Rv,MIC,>200 µM